Assay results taken from patent EP4837635A2, “SOLID PHARMACEUTICAL COMPOSITIONS FOR TREATING HCV” (dated 2026).

Assay: Single-dose crossover clinical study: bioavailability of Compound 1/Compound 2 mini-tablets
Conditions: mini-tablets (200 mg Compound 1) administered with food; reference regular tablets fasting
Method: In comparison, when administered with food, the mini-tablets provided an AUC that was only 5% lower than that provided by the regular tablets. […] All of the reference AUCs of the regular tablets were measured under fasting conditions.
14 subjects were enrolled in this study and dosed with co-formulated Compound 1/Compound 2 in mini-tablets. One subject spilled 4 mini-tablets (out of 100-150 total mini-tablets) during dosing of Period 2 (Regimen G) and was not excluded from the analysis. The mini-tablets were prepared according to a process similar to that described in Example 2.

CC(C)(C)[C@@H]1NC(=O)O[C@@H]2CCC[C@H]2OC/C=C/C(F)(F)c2nc3ccccc3nc2O[C@@H]2C[C@@H](C(=O)N[C@]3(C(=O)NS(=O)(=O)C4(C)CC4)C[C@H]3C(F)F)N(C2)C1=O
AUC of mini-tablets lower than that provided by regular tablets: 5%
